Pooled drug test results. Numbers come from NIAID ChemDB, via PubChem.

Common to all: cytotoxicity tests; read-out: CC50

CCn: concentration that lowers growth or viability of the cells by n%.

SMILES | cell line | read by | value
CC1COc2c(N3CCSCC3)c(F)c([N+](=O)[O-])c3c(=O)c(C(=O)O)cn1c23 | Vero mammalian cells | MTT | 153 µM
CCOC(=O)CCCCCOc1cccc(CN(C(=O)c2ccc(-c3cccnc3)cc2)C(C)C)c1 | HEK 293 |  | >20 µM
COC(=O)[C@H](C)NP(=O)(OC[C@@H]1C[C@]12C[C@@H]2n1cnc2c(N)ncnc21)Oc1ccccc1 | BSC-1 |  | 70 µM
CC(C)/C=C/C1=C(O)c2ccccc2C(=O)C1=O | 2C4 fibroblasts |  | >50 µg/mL
COc1cc(O)cc(C/C=C(\C)CCC=C(C)C)c1O | L6 rat skeletal myoblasts | resazurin | 2.1 µM
CC(C)N(Cc1cccc(OCCCCCC(=O)OC(=O)O)c1)C(=O)c1ccc(-c2c[nH]c3ccccc23)cc1 | BJ |  | >20 µM
C=CCOc1ccc(-c2cc3c(-c4ccnc(NC5CCCC5)n4)ccc(NC4CCCC4)n3n2)cc1 | VERO 76 |  | >100 µM
CSCO[C@]1(C)COC(C)(CC(=O)OC[C@@H]2C=C[C@H](n3cnc4c(N)ncnc43)O2)C1 | JM |  | 100 µM
COc1nc(N)nc2c1ncn2/C=C1/C[C@H]1CO | MEF |  | 261 µM
Cc1cn([C@H]2C=C[C@@H](COC(=O)CC3(C)C[C@](C)(O)CO3)O2)c(=O)[nH]c1=O | JM |  | >500 µM
CCc1cc2c(o1)C(=O)c1ccccc1C2=O | 2C4 fibroblasts |  | 10 µg/mL
Nc1nc(N)c2ncn(C=C3CC3CO)c2n1 | MEF |  | 293 µM
CC1COc2c(N3CCN(C)C(c4ccccc4)C3)c(F)c([N+](=O)[O-])c3c(=O)c(C(=O)O)cn1c23 | Mammalian Vero cells | MTT | 130 µM
O=C1C(=O)c2ccccc2C(O)=C1/C=C/c1ccccc1 | 2C4 fibroblasts |  | >50 µg/mL
Cc1ccc(-n2ncc3c(NC(=O)Cc4ccccc4Br)ncnc32)c(C)c1 | HUH 9B |  | 35 µM
CC1COc2c(N3CCn4cc(C(=O)O)nc4C3)c(F)c(N)c3c(=O)c(C(=O)O)cn1c23 | Mammalian Vero cells | MTT | >141 µM
COc1ccc(Cl)cc1Nc1ncnc2c1cnn2-c1cccc(Cl)c1 | HUH 9B |  | 16 µM
O=c1[nH]c(=O)n([C@H]2C[C@H](O)[C@@H](CO)O2)cc1-c1ccc(Br)s1 | P3HR-1 | cell count | 262 µM
CC1(C)C2CC=C3C(CC[C@@]4(C)C5C[C@](C)(C(=O)O)CC[C@]5(C)CC[C@]34C)[C@@]2(C)CCC1(O)O | A2780 |  | 20 µM
CCc1cn([C@H]2C[C@H](O)[C@@H](CO)O2)c(=O)[nH]c1=O | BCBL-1 | cell count | 215 µM
CC(C)N(Cc1cccc(OCCCCCC(=O)OC(=O)O)c1)C(=O)c1ccc(-c2cccc(-c3ccccc3)c2)cc1 | HepG2 |  | >20 µM
Fc1cccc(-c2cc3c(-c4ccnc(NC5CCCC5)n4)ccc(NC4CCCC4)n3n2)c1 | VERO 76 |  | >40 µM
CCOC(=O)CCCCCOc1cccc(CN(C(=O)c2ccc(-c3cccc(OC(C)C)c3)cc2)C(C)C)c1 | RAJI |  | >20 µM
CC(C)C[C@@H]1NC(=O)[C@H](Cc2c[nH]c3ccccc23)NC(=O)[C@@H](CCCN=C(N)N)NC(=O)[C@H](CC(N)=O)NC(=O)[C@H](C(C)C)NC(=O)[C@@H](CC(C)C)NC1=O | Colorectal carcinoma | MTT | >30 µM
CCC/C=C/C1=C(O)c2ccccc2C(=O)C1=O | 2C4 fibroblasts |  | >50 µg/mL
Clc1ccc(Nc2nnc(NCCc3ccccc3)nn2)cc1 | Mammalian cells |  | 29 µM
O=c1[nH]c(=O)n([C@H]2C[C@H](O)[C@@H](CO)O2)cc1/C=C/Cl | OMK | cell count | >70 µM
COC(=O)C(C)NP(=O)(OC[C@@H]1C/C1=C\n1cc(C)c(=O)[nH]c1=O)Oc1ccccc1 | H-1 |  | >100 µM
COc1ccc2c(c1)C=C1Cn3c-2c(C2CCCCC2)c2ccc(cc23)C(=O)NS(=O)(=O)N(C)CCOCCN(C)C1=O | VERO E6 | resazurin | >50 µM
CC(C)C[C@@H]1NC(=O)[C@H](Cc2c[nH]c3ccccc23)NC(=O)[C@@H](Cc2ccccc2)NC(=O)[C@H](CCCCN)NC(=O)[C@H](C(C)C)NC(=O)[C@@H](CC(C)C)NC1=O | Colorectal carcinoma | MTT | >30 µM
CCOC(=O)/C=C1\NCCc2cc3c(cc21)OCO3 | HepG2 |  | >20 µM
Cc1ccc(-n2ncc3c(Nc4ccc(S(N)(=O)=O)cc4)ncnc32)c(C)c1 | HUH 9B |  | >50 µM
COC(=O)C(C)NP(=O)(OC[C@@H]1C/C1=C/n1cc(C)c(=O)[nH]c1=O)Oc1ccccc1 | H-1 |  | 45 µM
Cc1ccc(CCNc2nnc(NCC[N+](C)(C)c3ccc(Cl)cc3)nn2)cc1 | Mammalian cells |  | >150 µM
CCOC(=O)CCCCCOc1cccc(CN(C(=O)c2ccc(-c3cccc(Oc4ccccc4)c3)cc2)C(C)C)c1 | HEK 293 |  | 13.5–20 µM
COC(=O)C(C)NP(=O)(OC[C@@H]1C/C1=C\n1cc(N)c(=O)[nH]c1=O)Oc1ccccc1 | H-1 |  | >100 µM
CC1COc2c(N3CCn4cc(C(=O)O)nc4C3)c(F)c([N+](=O)[O-])c3c(=O)c(C(=O)O)cn1c23 | Mammalian Vero cells | MTT | 132 µM
CC(C)C[C@@H]1NC(=O)[C@H](Cc2c[nH]c3ccccc23)NC(=O)[C@@H](CCCN)NC(=O)[C@H](CC(N)=O)NC(=O)[C@H](C(C)C)NC(=O)[C@@H](CC(C)C)NC1=O | Lung carcinoma cells | MTT | >30 µM
Cc1ccc(-n2ncc3c(NC(=O)Nc4cccc(Cl)c4Cl)ncnc32)c(C)c1 | HUH 9B |  | 15 µM
CC(C)=CCC1=C(O)c2ccccc2C(=O)C1=O | 2C4 fibroblasts |  | 10 µg/mL
O=C(O)C(=O)/C=C(\O)c1ccc(OCc2ccccc2)cc1 | Huh-7 hepatoma cells |  | >100 µM
C/C(=N\N=C(N)N)c1cc(NC(=O)CCCCCCCCC(=O)Nc2cc(/C(C)=N/N=C(N)N)cc(/C(C)=N/N=C(N)N)c2)cc(/C(C)=N/N=C(N)N)c1 | HepG2 2.2.15 |  | 24.67 µM
Brc1cccc(-c2cc3c(-c4ccnc(NC5CCCC5)n4)ccc(NC4CCCC4)n3n2)c1 | VERO 76 |  | >100 µM
CCc1cc2c(o1)-c1ccccc1C(=O)C2=O | 2C4 fibroblasts |  | 0.01 µg/mL
CC1COc2c(N3CCN(C(c4ccccc4)c4ccc(Cl)cc4)CC3)c(F)c([N+](=O)[O-])c3c(=O)c(C(=O)O)cn1c23 | Mammalian Vero cells | MTT | 105 µM
CCOC(=O)COc1ccc(CN(C(=O)c2ccc(-c3ccc4c(c3)OCO4)cc2)C(C)C)cc1 | RAJI |  | >20 µM
CCCc1cc2c(o1)-c1ccccc1C(=O)C2=O | 2C4 fibroblasts |  | 0.01 µg/mL
CC(C)C[C@@H]1NC(=O)[C@H](Cc2c[nH]c3ccccc23)NC(=O)[C@@H](CCCCN)NC(=O)[C@H](CC(N)=O)NC(=O)[C@H](C(C)C)NC(=O)[C@@H](CC(C)C)N(C)C1=O | Lung carcinoma cells | MTT | >30 µM
O=c1[nH]c(=O)n([C@@H]2O[C@H](CO)[C@@H](O)[C@@H]2O)cc1/C=C/Br | OMK | cell count | >250 µM
CS(=O)(=O)Nc1cccc(-c2cc3c(-c4ccnc(NC5CCCC5)n4)ccc(NC4CCCC4)n3n2)c1 | VERO 76 |  | >40 µM

Two numbers with a dash give a range or band. Neighbouring rows are from separate reports. An empty or dashed field is not shown.